According to patent US20160264649A1 (published 2016):
Numbering of substitutions follows the chain as printed.

B1: 1460_G14 (PGG14) (antibody, V domains shown)
VH: QVLLVQSGTEVKKPGSSVKVSCQASGGAFSSYAFSWVRQAPGQGLEWMGMITPVFGETKYAPRFQGRLTLTAEESLSTTYMELRSLTSDDTAFYYCTRDRRVVPMATDNWLDPWGQGTLVTVSS
VL: DIQLTQSPSSLSASVGDRVTVTCRASQTIHTYLNWYQQIPGKAPKLLIYGASTLQSGVPSRFSGSGSGTDFTLTINSLQPEDFATYYCQQSYSTPRTFGQGTRLDIKR
B2: 1456_P20 (PG20) (antibody, V domains shown)
VH: QVRLVQSGPEVKKPGSSVTVSCQASGGTFSSYAFTWVRQAPGQGLEWLGMVTPIFGEAKYSQRFEGRVTITADESTSTTSIELRGLTSEDTAIYYCARDRRAVPIATDNWLDPWGQGTLVTVSS
VL: B1 VL with T20S, V21I, H30N, T31N, I39T, T53N, S56N, N76S, Y92F
B3: PGT-127 monoclonal antibody (5145_B14) (antibody, V domains shown)
VH: QPQLQESGPGLVEASETLSLTCTVSGDSTGRCNYFWGWVRQPPGKGLEWIGSLSHCRSYYNTDWTYHNPSLKSRLTISLDTPKNQVFLRLTSVTAADTATYYCARFGGEVLVYRDWPKPAWVDLWGRGTLVVTVS
VL: QSALTQPPSASGSPGQSITISCTGTSNNFVSWYQQYPGKAPKLVIYEVNKRPSGVPDRFSGSKSGSTASLTVSGLQADDEGVYYCSSLVGNWDVIFGGGTKLTVL
B4: 4993_K13 (PGT-141) (antibody, V domains shown)
VH: QVQLVQSGPEVKKPGSSVKVSCKASGNTFSKYDVHWVRQATGQGLEWVGWMSHEGDKTESAQRFKGRVTFTRDTSASTAYMELRGLTSDDTAIYYCTRGSKHRLRDYVLYDDYGLINYQEWNDYLEFLDVWGHGTAVTVSS
VL: DTVVTQSPLSLPVTPGEAASMSCSSTQSLRHSNGANYLAWYQHKPGQSPRLLIRLGSQRASGVPDRFSGSGSGTHFTLKISRVEAEDAAIYYCMQGLNRPWTFGKGTKLEIK
B5: 4995_E20 (PGT-142) (antibody, V domains shown)
VH: B4 VH with M51I, G55R, S77T
VL: B4 VL
B6: 4980_N08 (PGT-143) (antibody, V domains shown)
VH: B4 VH with V5E, P9A
VL: B4 VL with S24T, A85P
B7: 4970_K22 (PGT-144) (antibody, V domains shown)
VH: B4 VH with P9A, S30R, T69S, T74N, M81I, R98G, Y118Q
VL: B4 VL with P12S, S24T, E86D
B8: 4995_P16 (PGT-145) (antibody, V domains shown)
VH: QVQLVQSGAEVKKPGSSVKVSCKASGNSFSNHDVHWVRQATGQGLEWMGWMSHEGDKTGLAQKFQGRVTITRDSGASTVYMELRGLTADDTAIYYCLTGSKHRLRDYFLYNEYGPNYEEWGDYLATLDVWGHGTAVTVSS
VL: EVVITQSPLFLPVTPGEAASLSCKCSHSLQHSTGANYLAWYLQRPGQTPRLLIHLATHRASGVPDRFSGSGSGTDFTLKISRVESDDVGTYYCMQGLHSPWTFGQGTKVEIK

Experiments:
Experiment in all cases: cell-based or functional assay
HIV-1 92TH021 Env = HIV-1 92TH021 Env (HIV-1)
HIV-1 94UG103 Env = HIV-1 94UG103 Env (HIV-1)
HIV-1 93UG077 Env = HIV-1 93UG077 Env (HIV-1)
HIV-1 APV-6 Env = HIV-1 APV-6 Env (HIV-1)
HIV-1 CMU02 Env = HIV-1 CMU02 Env (HIV-1)
HIV-1 APV-17 Env = HIV-1 APV-17 Env (HIV-1)
HIV-1 92UG024 Env = HIV-1 92UG024 Env (HIV-1)
HIV-1 93IN905 Env = HIV-1 93IN905 Env (HIV-1)
HIV-1 NL43 Env = HIV-1 NL43 Env (HIV-1)
HIV-1 IAVI-C22 Env = HIV-1 IAVI-C22 Env (HIV-1)
HIV-1 92BR020 Env = HIV-1 92BR020 Env (HIV-1)
HIV-1 APV-13 Env = HIV-1 APV-13 Env (HIV-1)
HIV-1 IAVI-C3 Env = HIV-1 IAVI-C3 Env (HIV-1)
HIV-1 92RW020 Env = HIV-1 92RW020 Env (HIV-1)
HIV-1 92UG005 Env = HIV-1 92UG005 Env (HIV-1)
HIV-1 IAVI-C18 Env = HIV-1 IAVI-C18 Env (HIV-1)
[1] = molecular target: HIV-1 Env of isolate MG RM-C-007 (HIV-1)
[2] = molecular target: HIV-1 Env of isolate MG RM-C-006 (HIV-1)
[3] = molecular target: HIV-1 Env of isolate MG RM-C-014 (HIV-1)
[4] = molecular target: HIV-1 Env of isolate MG RM-C-010 (HIV-1)
[5] = molecular target: HIV-1 Env of isolate MG RM-C-015 (HIV-1)
[6] = molecular target: HIV-1 Env of isolate MG RM-C-008 (HIV-1)
[7] = molecular target: HIV-1 Env of isolate MG RM-C-002 (HIV-1)
[8] = molecular target: HIV-1 Env of isolate MG RM-C-005 (HIV-1)
[9] = molecular target: HIV-1 Env of isolate MG RM-C-012 (HIV-1)
[10] = molecular target: HIV-1 Env of isolate MG RM-C-019 (HIV-1)
[11] = molecular target: HIV-1 Env of isolate MG RM-C-004 (HIV-1)
[12] = molecular target: HIV-1 Env of isolate MG RM-C-017 (HIV-1)
[13] = molecular target: HIV-1 Env of isolate MG RM-C-013 (HIV-1)
[14] = molecular target: HIV-1 Env of isolate MG RM-C-001 (HIV-1)
[15] = molecular target: HIV-1 Env of isolate MG RM-C-009 (HIV-1)
[16] = molecular target: HIV-1 Env of isolate MG RM-C-008 (subtype C) (HIV-1)
[17] = molecular target: HIV-1 Env of isolate MG RM-C-015 (subtype C) (HIV-1)
[18] = molecular target: HIV-1 Env of isolate MG RM-C-017 (subtype C) (HIV-1)
[19] = molecular target: HIV-1 Env of isolate MG RM-C-009 (subtype C) (HIV-1)
[20] = molecular target: HIV-1 Env of isolate MG RM-C-005 (subtype C) (HIV-1)
[21] = molecular target: HIV-1 Env of isolate MG RM-C-007 (subtype C) (HIV-1)
[22] = molecular target: HIV-1 Env of isolate MG RM-C-006 (subtype C) (HIV-1)
[23] = molecular target: HIV-1 Env of isolate MG RM-C-014 (subtype C) (HIV-1)
[24] = molecular target: HIV-1 Env of isolate MG RM-C-004 (subtype C) (HIV-1)
[25] = molecular target: HIV-1 Env of isolate MG RM-C-001 (subtype C) (HIV-1)
[26] = molecular target: HIV-1 Env of isolate MG RM-C-010 (subtype C) (HIV-1)
[27] = molecular target: HIV-1 Env of isolate MG RM-C-013 (subtype C) (HIV-1)
[28] = molecular target: HIV-1 Env of isolate MG RM-C-012 (subtype C) (HIV-1)
[29] = molecular target: HIV-1 Env of isolate MG RM-C-002 (subtype C) (HIV-1)

| Binder | IC50 [16] [µg/mL] | IC50 [17] [µg/mL] | IC50 [18] [µg/mL] | IC50 [19] [µg/mL] | IC50 [20] [µg/mL] | IC50 [21] [µg/mL] | IC50 [22] [µg/mL] | IC50 [23] [µg/mL] | IC50 [24] [µg/mL] | IC50 [25] [µg/mL] | IC50 [26] [µg/mL] | IC50 [27] [µg/mL] | IC50 [28] [µg/mL] | IC50 [29] [µg/mL] | further results |
| --- | --- | --- | --- | --- | --- | --- | --- | --- | --- | --- | --- | --- | --- | --- | --- |
| B1 | – | – | – | – | – | – | – | – | – | – | – | – | – | – | neutralization IC50 (HIV-1 92TH021 Env): > 50 µg/mL; neutralization IC50 (HIV-1 94UG103 Env): > 50 µg/mL; neutralization IC50 (HIV-1 93UG077 Env): > 50 µg/mL; neutralization IC50 (HIV-1 APV-6 Env): > 50 µg/mL; neutralization IC50 (HIV-1 CMU02 Env): > 50 µg/mL; neutralization IC50 (HIV-1 APV-17 Env): > 50 µg/mL; neutralization IC50 (HIV-1 92UG024 Env): > 50 µg/mL; neutralization IC50 (HIV-1 93IN905 Env): > 50 µg/mL; neutralization IC50 (HIV-1 NL43 Env): 0.172 µg/mL; neutralization IC50 (HIV-1 IAVI-C22 Env): > 50 µg/mL; neutralization IC50 (HIV-1 92BR020 Env): > 50 µg/mL; neutralization IC50 (HIV-1 APV-13 Env): > 50 µg/mL; neutralization IC50 (HIV-1 IAVI-C3 Env): > 50 µg/mL; neutralization IC50 (HIV-1 92RW020 Env): > 50 µg/mL; neutralization IC50 (HIV-1 92UG005 Env): > 50 µg/mL; neutralization IC50 (HIV-1 IAVI-C18 Env): > 50 µg/mL |
| B2 | – | – | – | – | – | – | – | – | – | – | – | – | – | – | neutralization IC50 (HIV-1 92TH021 Env): > 50 µg/mL; neutralization IC50 (HIV-1 94UG103 Env): > 50 µg/mL; neutralization IC50 (HIV-1 93UG077 Env): > 50 µg/mL; neutralization IC50 (HIV-1 APV-6 Env): 25.8 µg/mL; neutralization IC50 (HIV-1 CMU02 Env): > 50 µg/mL; neutralization IC50 (HIV-1 APV-17 Env): > 50 µg/mL; neutralization IC50 (HIV-1 92UG024 Env): > 50 µg/mL; neutralization IC50 (HIV-1 93IN905 Env): > 50 µg/mL; neutralization IC50 (HIV-1 NL43 Env): 0.188 µg/mL; neutralization IC50 (HIV-1 IAVI-C22 Env): > 50 µg/mL; neutralization IC50 (HIV-1 92BR020 Env): > 50 µg/mL; neutralization IC50 (HIV-1 APV-13 Env): > 50 µg/mL; neutralization IC50 (HIV-1 IAVI-C3 Env): > 50 µg/mL; neutralization IC50 (HIV-1 92RW020 Env): > 50 µg/mL; neutralization IC50 (HIV-1 92UG005 Env): > 50 µg/mL; neutralization IC50 (HIV-1 IAVI-C18 Env): > 50 µg/mL |
| B3 | – | – | – | – | – | – | – | – | – | – | – | – | – | – | neutralization IC50 [1]: > 50 µg/mL; neutralization IC50 [2]: 0.319 µg/mL; neutralization IC50 [3]: > 50 µg/mL; neutralization IC50 [4]: > 50 µg/mL; neutralization IC50 [5]: > 50 µg/mL; neutralization IC50 [6]: > 50 µg/mL; neutralization IC50 [7]: 0.057 µg/mL; neutralization IC50 [8]: 0.57 µg/mL; neutralization IC50 [9]: 1.07 µg/mL; neutralization IC50 [10]: 0.017 µg/mL; neutralization IC50 [11]: 0.532 µg/mL; neutralization IC50 [12]: 3.4 µg/mL; neutralization IC50 [13]: > 50 µg/mL; neutralization IC50 [14]: > 50 µg/mL; neutralization IC50 [15]: > 50 µg/mL |
| B4 | > 50 | 0.033 | 4.02 | 0.143 | 8.83 | > 50 | 0.33 | 11.8 | > 50 | > 50 | 0.411 | > 50 | > 50 | 7.83 | – |
| B5 | > 50 | 0.038 | 1.11 | 0.061 | 1.85 | > 50 | 0.478 | 6.02 | > 50 | > 50 | 0.07 | > 50 | > 50 | 10.5 | – |
| B6 | > 50 | 0.085 | 5.17 | 0.121 | 9.19 | > 50 | 0.369 | 8.81 | > 50 | > 50 | 0.171 | > 50 | > 50 | 6.77 | – |
| B7 | > 50 | 0.236 | 23 | 0.561 | > 50 | > 50 | 48.9 | > 50 | > 50 | > 50 | 7.62 | > 50 | > 50 | > 50 | – |
| B8 | > 50 | 0.12 | > 50 | 0.193 | > 50 | > 50 | 0.01 | 5.82 | > 50 | > 50 | 0.141 | > 50 | 6.98 | 0.008 | – |
